Record: PubChem BioAssay AID1259414 (Drosophila RNAi Screening Center, 2018)

- Screen: 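Genome-wide screen for host control of endosymbiont load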 (primary screen)
- System: Drosophila JW18 cells infected with Wolbachia
- Reagent: long dsRNA against Drosophila genes, 0.25 µg dsRNA per well of a 384-well plate
- Timing: 5 days
- Challenge: cells persistently infected with Wolbachia before knock-down; no added drug
- Measured: 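Imaged fluorescence in situ signal for Wolbachia 23S rRNA per DAPI-counted host cell, given as a robust z-score within each plate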
- Scale: Wolbachia per cell robust z: higher = more Wolbachia per host cell than the plate typical
- Hit rule: 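Hit when robust z is 1.5 or more, or -1.5 or less, in at least two of three replicates; excludes dsRNAs with several or no targets, genes not expressed in JW18 and well A1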
The deposit covers about 24,000 reagents; this is a random part of those with a known target gene and a result. Over the whole deposit, about 1,210 (5%) are marked active. 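Inactive calls also include excluded dsRNAs with several or no targets, genes unexpressed in JW18, and well A1, regardless of score.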 A number with no mark means an inactive call. Reagent sequences are not shown.

no.	Gene	amplicon	Wolbachia per cell robust z, rep 1	Wolbachia per cell robust z, rep 2	Wolbachia per cell robust z, rep 3
1	Obp57e (Odorant-binding protein 57e)	DRSC05891	-0.0708	0.721	-0.139
2	Obp57e (Odorant-binding protein 57e)	DRSC41491	0.768	-0.231	0.317
3	Mf (Myofilin)	DRSC16120	0.612	-0.452	-0.122
4	CG13427	DRSC06389	0.392	0.648	1.07
5	CG7220	DRSC05235	0.365	1.01	1.95
6	CG7220	DRSC07018	0.403	-0.525	0.686
7	CG7220	DRSC26138	0.467	1.26	0.277
8	Su(z)2 (Suppressor of zeste 2)	DRSC22970	0.346	0.427	0.133
9	Cyt-b5 (Cytochrome b5)	DRSC07392	0.91	-0.909	-0.195
10	nrv3 (nervana 3)	DRSC03097	-0.304	0.219	-0.123
11	VhaPPA1-1 (Vacuolar H[+] ATPase PPA1 subunit 1)	DRSC16170	0.328	0.662	0.909
12	VhaPPA1-1 (Vacuolar H[+] ATPase PPA1 subunit 1)	DRSC24144	-1.64	0.367	0.4
13	tHMG1 (testis-enriched HMG-box-containing protein 1)	DRSC16181	-0.517	-1.1	-1.33
14	thetaTry (thetaTrypsin)	DRSC07705	-0.63	0.126	-0.852
15	thetaTry (thetaTrypsin)	DRSC29830	-0.23	0.068	0.325
16	Elp5 (Elongator complex protein 5)	DRSC08547	0.095	-0.353	-0.239
17	CG13711	DRSC08320	0.00842	-0.705	-1.02
18	CG13711	DRSC24101	-0.495	-0.793	-0.647
19	CG13004	DRSC19523	-0.21	0.283	-2.67
20	Vps28 (Vacuolar protein sorting 28)	DRSC06168	0.215	0.808	0.537
21	spz3 (spatzle 3)	DRSC02391	-3.55	0.378	1.12
22	spz3 (spatzle 3)	DRSC03008	-1.85	0.658	-0.868
23	dec (defective chorion)	DRSC18759	-0.0694	0.713	-0.459
24	dec (defective chorion)	DRSC21477	-0.301	-0.465	-0.236
25	dec (defective chorion)	DRSC27935	-0.881	-5.61	-0.0605
26	ABCB7 (ATP binding cassette subfamily B member 7)	DRSC08603	1.02	1.35	0.539
27	Surf4 (Surfeit 4)	DRSC16875	-0.763	-0.666	0.513
28	CG13954	DRSC06442	0.596	-1.45	-0.0796
29	CG13954	DRSC27499	-0.868	-0.893	-1.15
